Source: PubChem BioAssay AID1259414 (Drosophila RNAi Screening Center, 2018)
The deposit covers about 24,000 reagents; below is a random part of those that have a named target and a result. Of all reagents, about 1,210 (5%) were called active. 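Inactive calls also include excluded dsRNAs with several or no targets, genes unexpressed in JW18, and well A1, regardless of score.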 A plus sign joins genes that one reagent is predicted to hit.

Test: 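Fly genes that alter Wolbachia amount inside host cells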 (primary screen)
Cells: Drosophila JW18 cells infected with Wolbachia
Reagents: long dsRNA against Drosophila genes, 0.25 µg dsRNA per well of a 384-well plate
Duration: 5 days
Treatment: cells persistently infected with Wolbachia before knock-down; no added drug
Measured: 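Imaged fluorescence in situ signal for Wolbachia 23S rRNA per DAPI-counted host cell, given as a robust z-score within each plate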
Direction: Wolbachia per cell robust z: higher = more Wolbachia per host cell than the plate typical
Hit rule: 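Active if absolute robust z reaches 1.5 in two or more of three replicates, leaving out multi- or no-target dsRNAs, genes unexpressed in JW18 and A1 wells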

AdamTS-A [DRSC14992]: Wolbachia per cell robust z, rep 1 = 0.121; Wolbachia per cell robust z, rep 2 = -0.785; Wolbachia per cell robust z, rep 3 = -0.22; outcome = inactive
AdamTS-A [DRSC15966]: Wolbachia per cell robust z, rep 1 = -5.91; Wolbachia per cell robust z, rep 2 = 0.672; Wolbachia per cell robust z, rep 3 = 0.935; outcome = inactive
SmF [DRSC07397]: Wolbachia per cell robust z, rep 1 = 1.71; Wolbachia per cell robust z, rep 2 = 1.47; Wolbachia per cell robust z, rep 3 = 1.14; outcome = inactive
SmF [DRSC25054]: Wolbachia per cell robust z, rep 1 = 0.897; Wolbachia per cell robust z, rep 2 = 1.36; Wolbachia per cell robust z, rep 3 = 2.65; outcome = inactive
Vps15 [DRSC16553]: Wolbachia per cell robust z, rep 1 = 1.62; Wolbachia per cell robust z, rep 2 = 0.962; Wolbachia per cell robust z, rep 3 = 0.963; outcome = inactive
Su(var)2-HP2 [DRSC06204]: Wolbachia per cell robust z, rep 1 = -1.47; Wolbachia per cell robust z, rep 2 = -1.71; Wolbachia per cell robust z, rep 3 = -4.75; outcome = active
Su(var)2-HP2 [DRSC29542]: Wolbachia per cell robust z, rep 1 = 0.191; Wolbachia per cell robust z, rep 2 = 0.604; Wolbachia per cell robust z, rep 3 = -0.207; outcome = inactive
CG15506 [DRSC15047]: Wolbachia per cell robust z, rep 1 = -2.29; Wolbachia per cell robust z, rep 2 = -0.0602; Wolbachia per cell robust z, rep 3 = 0.149; outcome = inactive
CG15506 [DRSC41503]: Wolbachia per cell robust z, rep 1 = -0.227; Wolbachia per cell robust z, rep 2 = 1.24; Wolbachia per cell robust z, rep 3 = -0.37; outcome = inactive
Ir62a [DRSC08250]: Wolbachia per cell robust z, rep 1 = -0.582; Wolbachia per cell robust z, rep 2 = 0.858; Wolbachia per cell robust z, rep 3 = 0.637; outcome = inactive
Mpcp1 [DRSC07337]: Wolbachia per cell robust z, rep 1 = -2.34; Wolbachia per cell robust z, rep 2 = 1.14; Wolbachia per cell robust z, rep 3 = 0.244; outcome = inactive
ETHR [DRSC15915]: Wolbachia per cell robust z, rep 1 = 1.05; Wolbachia per cell robust z, rep 2 = 0.003; Wolbachia per cell robust z, rep 3 = -0.223; outcome = inactive
ETHR [DRSC29606]: Wolbachia per cell robust z, rep 1 = -1.64; Wolbachia per cell robust z, rep 2 = -3.97; Wolbachia per cell robust z, rep 3 = -1.08; outcome = inactive
CG8500 [DRSC16434]: Wolbachia per cell robust z, rep 1 = -0.526; Wolbachia per cell robust z, rep 2 = -7.92; Wolbachia per cell robust z, rep 3 = -1.29; outcome = inactive
CG8500 [DRSC27083]: Wolbachia per cell robust z, rep 1 = -4.52; Wolbachia per cell robust z, rep 2 = 1.04; Wolbachia per cell robust z, rep 3 = 0.346; outcome = inactive
CG6012 [DRSC02921]: Wolbachia per cell robust z, rep 1 = -1.51; Wolbachia per cell robust z, rep 2 = -5.96; Wolbachia per cell robust z, rep 3 = -1.2; outcome = inactive
CG4820 [DRSC15654]: Wolbachia per cell robust z, rep 1 = 0.185; Wolbachia per cell robust z, rep 2 = 1.32; Wolbachia per cell robust z, rep 3 = 0.946; outcome = inactive
Cpr64Ad [DRSC08284]: Wolbachia per cell robust z, rep 1 = -8.02; Wolbachia per cell robust z, rep 2 = -0.665; Wolbachia per cell robust z, rep 3 = 0.705; outcome = inactive
Cpr64Ad [DRSC25264]: Wolbachia per cell robust z, rep 1 = -0.432; Wolbachia per cell robust z, rep 2 = -10.8; Wolbachia per cell robust z, rep 3 = 0.507; outcome = inactive
betaTub60D [DRSC04673]: Wolbachia per cell robust z, rep 1 = -0.328; Wolbachia per cell robust z, rep 2 = 0.254; Wolbachia per cell robust z, rep 3 = -6.85; outcome = inactive
betaTub60D [DRSC22218]: Wolbachia per cell robust z, rep 1 = 1.1; Wolbachia per cell robust z, rep 2 = -0.289; Wolbachia per cell robust z, rep 3 = -0.736; outcome = inactive
betaTub60D [DRSC23872]: Wolbachia per cell robust z, rep 1 = 0.405; Wolbachia per cell robust z, rep 2 = 1.79; Wolbachia per cell robust z, rep 3 = -0.437; outcome = inactive
betaTub60D [DRSC38952]: Wolbachia per cell robust z, rep 1 = -1.2; Wolbachia per cell robust z, rep 2 = 0.698; Wolbachia per cell robust z, rep 3 = -1.76; outcome = inactive
CG33964 + CG13175 [DRSC06300]: Wolbachia per cell robust z, rep 1 = -0.861; Wolbachia per cell robust z, rep 2 = -2.89; Wolbachia per cell robust z, rep 3 = -0.822; outcome = inactive
CG33964 + CG13175 [DRSC06301]: Wolbachia per cell robust z, rep 1 = -0.765; Wolbachia per cell robust z, rep 2 = 0.153; Wolbachia per cell robust z, rep 3 = 0.069; outcome = inactive

Entries listed so far whose gene name begins with S or s:
SmF [DRSC07397]: Wolbachia per cell robust z, rep 1 = 1.71; Wolbachia per cell robust z, rep 2 = 1.47; Wolbachia per cell robust z, rep 3 = 1.14; outcome = inactive
SmF [DRSC25054]: Wolbachia per cell robust z, rep 1 = 0.897; Wolbachia per cell robust z, rep 2 = 1.36; Wolbachia per cell robust z, rep 3 = 2.65; outcome = inactive
Su(var)2-HP2 [DRSC06204]: Wolbachia per cell robust z, rep 1 = -1.47; Wolbachia per cell robust z, rep 2 = -1.71; Wolbachia per cell robust z, rep 3 = -4.75; outcome = active
Su(var)2-HP2 [DRSC29542]: Wolbachia per cell robust z, rep 1 = 0.191; Wolbachia per cell robust z, rep 2 = 0.604; Wolbachia per cell robust z, rep 3 = -0.207; outcome = inactive
